Experiment [1] is filed under the species Cricetulus griseus. Nature of the experiment: Selectivity ratio of PARP inhibition in chinese hamster VC8 cells harboring wild type BRCA2 to PARP inhibition in chinese hamster VC8 cells harboring BRCA2 mutant. The format is cell-based.
For experiment [2], the species on record is Cricetulus griseus. In words: Inhibition of PARP in chinese hamster VC8 cells harboring BRCA2 mutant assessed as growth inhibition. In kind it is cell-based.

Activity calls are given as the source filed them. The calls are words filed in the database; no cut-off is given here.

Turning to `O=c1[nH]ccc2c(/N=N/N(CCCl)CCCl)cccc12`, the Selectivity ratio in experiment [1] is 2 to 7. Also, in experiment [2], the inhibition entry was “inactive”.

Values taken from ChEMBL document CHEMBL4041536, “Design, synthesis and biological activity of novel molecules designed to target PARP and DNA” (Bioorg Med Chem Lett, 2017).
